Measured values from patent publication US20220306702.

Molecular target: GST-TAB2 protein substrate [GST: P08515]

B1: mutant NleE R107A (protein)
chain: MINPVTNTQGVSPINTKYAEHVVKNIYPEIKHDYFNESPNIYDKKYISGITRGVAELKQEEFVNEKARRFSYMKTMYSVCPEAFEPISRNEASTPEGSWLTVISGKAPMGQFSVDSLYNPDLHALCELPDICCKIFPKENNDFLYIVVVYRNDSPLGEQRANRFIELYNIKRDIMQELNYELPELKAVKSEMIIAREMGEIFSYMPGEIDSYMKYINNKLSKIE
methylase activity (MTase glo assay): the presence of an R107A mutation in NLeE abolished methylase activity
